Results of unrelated studies side by side (data: NIAID ChemDB).

Shared fields: tests in culture; species: Herpes simplex virus 1; cells: VERO; read-out: inhibition

An empty or dashed field is not shown.

structure,strain,method,dose,value
Cc1nn2c(=O)c3c4c(sc3nc2n1-c1ccccc1)CCCC4,-,plaque count,0.3 µg/mL,0%
O=C(O)CP(=O)(O)OC[C@H]1O[C@@H](n2cc(CCCl)c(=O)[nH]c2=O)C[C@@H]1O,TK-,cytopathic effect,23.2 µM,>25%
NC(=S)N/N=C/c1ccc(O)cn1,PH,plaque count,40 µM,14%
O=C(CP(=O)(O)O)O[C@H]1C[C@H](n2cc(CCCl)c(=O)[nH]c2=O)O[C@@H]1CO,TK-,cytopathic effect,242 µM,>25%
Oc1cc(O)c2c(c1)O[C@H](c1ccc(O)c(O)c1)[C@H](O)[C@H]2c1c(O)cc(O)c2c1O[C@H](c1ccc(O)c(O)c1)[C@H](O)C2,17 syn +,MTT,200 µM,32%
O=Nc1c(O)n(-c2ccc(F)cc2)c(=O)[nH]c1=O,Leningrad/248/88,cytopathic effect,100 µg/mL,65%
O=C(O[C@@H]1[C@@H](c2c(O)cc(O)c3c2O[C@H](c2ccc(O)c(O)c2)[C@H](OC(=O)c2cc(O)c(O)c(O)c2)C3)c2c(O)cc(O)cc2O[C@@H]1c1ccc(O)c(O)c1)c1cc(O)c(O)c(O)c1,17 syn +,MTT,20 µM,78%
CNc1nc2sc3c(c2c(=O)n1N)CCCC3,-,plaque count,0.3 µg/mL,10%
CN1C(=O)C(=O)c2ccccc21,PH,plaque count,40 µM,0%
Oc1cc(O)c2c(c1)O[C@H](c1ccc(O)c(O)c1)[C@H](O)C2,17 syn +,MTT,200 µM,57%
O=Nc1c(O)n(CCc2ccc(F)cc2)c(=O)[nH]c1=O,Leningrad/248/88,cytopathic effect,100 µg/mL,40%
CCOC(=O)CP(=O)(OC)OC[C@H]1O[C@@H](n2cc(CCCl)c(=O)[nH]c2=O)C[C@@H]1O,TK-,cytopathic effect,66 µM,>25%
Cc1ccccc1-n1c(O)c(N=O)c(=O)[nH]c1=S,Leningrad/248/88,cytopathic effect,100 µg/mL,50%
NNC(N)=S,PH,plaque count,40 µM,95%
O=Nc1c(O)n(Cc2ccc(F)cc2)c(=O)[nH]c1=O,Leningrad/248/88,cytopathic effect,100 µg/mL,40%
O=c1c2c3c(sc2nc(Nc2ccccc2)n1/N=C/c1ccc(Br)cc1)CCCC3,-,plaque count,0.3 µg/mL,30%

Inhibition is in % at the dose shown (toxicity tests: loss of growth or viability). Neighbouring rows are from separate reports.